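Phenotypic screen: M. tuberculosis growth, cholesterol and DPPC medium, 4 days; the read-out is not stated. Compounds at 500 µM. Direction is inferred from retests: higher values go with more growth inhibition. Size under these conditions: about 18,000 compounds, about 900 of them at 50% or above in at least one test.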

Results are given as percent effect. The controls that fix the scale are not given in the record; negative values are as filed. The entries come from a sample that favours strong results.

{"structure": "CNC(=O)CSCc1nc(-c2ccccc2C)no1", "Percent Effect": 78.91}
{"structure": "Cc1cc(N2CCC3(CC2)OCCO3)nc(C)n1", "Percent Effect": 7.296}
{"structure": "Cc1ccc(C(=O)NCc2ccnc(N(C)C)c2)cn1", "Percent Effect": 11.6}
{"structure": "NC(=O)CSCC(=O)Nc1ccc(Cl)c(F)c1", "Percent Effect": 24.16}
{"structure": "CNc1ncccc1N", "Percent Effect": -252.9}
{"structure": "COCc1noc(CC(C)NC(=O)C2CCCC2)n1", "stereo": "stereo not drawn", "Percent Effect": -2.25}
{"structure": "NS(=O)(=O)CCc1ccc(F)cc1", "Percent Effect": -13.97}
{"structure": "CCc1nnsc1C(=O)Nc1nnc(C)s1", "Percent Effect": 14.99}
{"structure": "N#Cc1ccnc(OC(F)F)c1", "Percent Effect": -19.93}
{"structure": "CN(C)C(CNc1ncccc1F)C1CC1", "stereo": "stereo not drawn", "Percent Effect": -2.447}
{"structure": "CCOc1cc(CN)ccc1OC(F)F", "Percent Effect": 26.43}
{"structure": "Cc1nc(CNC(=O)CC2=CCCCC2)no1", "Percent Effect": 51.82}
{"structure": "Cc1noc(CSc2ccc(C(=O)N3CCC3)cc2)n1", "Percent Effect": 55.96}
{"structure": "CCCc1cc(C(N)=O)ccn1", "Percent Effect": 5.832}
{"structure": "Cn1cc(N)cc(Cl)c1=O", "Percent Effect": -136.5}
{"structure": "CS(=O)(=O)CCNC(=O)CCN1CCCCCCC1", "Percent Effect": 10.79}
{"structure": "CN(C)C[C@@H]1[C@H]2CN(Cc3ccc(CO)o3)C[C@@H]12", "Percent Effect": -4.349}
{"structure": "CC(C)NC(=O)NC(=O)C(C)N1CCC(O)CC1", "stereo": "stereo not drawn", "Percent Effect": -0.6748}
{"structure": "CN1N=C(c2ccc3c(c2)OCCO3)CCC1=O", "Percent Effect": 5.249}
{"structure": "CN(Cc1ccnn1C)S(=O)(=O)c1cccs1", "Percent Effect": 30.3}
{"structure": "Cc1cc(C(=O)N2CCC[C@@H](N)C2)on1", "Percent Effect": -6.489}
{"structure": "O=C(NCC(O)c1ccc(Cl)cc1)Nc1ccccn1", "stereo": "stereo not drawn", "Percent Effect": 78.69}
{"structure": "CSCCC(NS(=O)(=O)c1ccc(C)cc1)C(N)=O", "stereo": "stereo not drawn", "Percent Effect": -9.904}
{"structure": "CC(C)(C#N)C(=O)NCCNc1cccc(Br)c1", "Percent Effect": 64.46}
{"structure": "Nc1nccnc1C(=O)NCc1ccccc1", "Percent Effect": 22.46}
{"structure": "Cn1nnnc1NCc1cccc(Cl)c1Cl", "Percent Effect": 50.24}
{"structure": "CNC(=O)Cn1cc(-c2ccc3c(c2)OCO3)cn1", "Percent Effect": 0.6396}
{"structure": "NC(=O)CSc1nc(Cc2cccs2)n[nH]1", "Percent Effect": -9.272}
{"structure": "CCOc1cccc(Cn2cnc(CC)cc2=O)n1", "Percent Effect": 61.19}
{"structure": "CNCc1nc2c(s1)CCCC2", "Percent Effect": 56.84}
{"structure": "CCC1c2ccsc2CCN1C(=O)c1ccc(CN)o1", "stereo": "stereo not drawn", "Percent Effect": 53.83}
{"structure": "NC(=O)c1ccc(N2CCN(CCCO)CC2)cc1", "Percent Effect": 4.175}
{"structure": "Cc1ccc(NC(=O)CCS(C)(=O)=O)c(CN(C)C)c1", "Percent Effect": 4.409}
{"structure": "O=C(Cn1cnnn1)NCC1SCCc2ccccc21", "stereo": "stereo not drawn", "Percent Effect": -0.07561}
{"structure": "CCOC(=O)Nc1ccc(-n2cnnn2)cc1OC", "Percent Effect": 2.527}
{"structure": "COCCCC(=O)NC1CCc2nccn2C1", "stereo": "stereo not drawn", "Percent Effect": -20.44}
{"structure": "CC(C)N(C)S(=O)(=O)NCCc1cccs1", "Percent Effect": 46.74}
{"structure": "CN1CCCN(C(=O)c2cc3ccccc3[nH]2)CC1", "Percent Effect": 4.203}
{"structure": "CC(=O)NC(C)c1cccc(N2CCCC2=O)c1", "stereo": "stereo not drawn", "Percent Effect": 3.519}
{"structure": "COc1ccc(CCNC(C)=O)c(F)c1", "Percent Effect": -7.276}
{"structure": "O=C1NCCNC1c1ccc(C(F)(F)F)cc1", "stereo": "stereo not drawn", "Percent Effect": 13.64}
{"structure": "CC(C)N1CCC(C(=O)NCCc2cnccn2)CC1", "Percent Effect": 4.706}
{"structure": "CN(CCCN)C(=O)CCCn1ccnc1", "Percent Effect": 3.751}
{"structure": "Cc1cc(C(=O)N2CCN(Cc3ccsc3)CC2)[nH]n1", "Percent Effect": 84.01}
{"structure": "CC(C)CC(C)(N)CN", "stereo": "stereo not drawn", "Percent Effect": 13.81}
{"structure": "CN(Cc1ccc(O)cc1)C(=O)c1cc(Cl)c[nH]1", "Percent Effect": 100}
{"structure": "CCN(C(=O)Cc1csc(N2CCCC2=O)n1)C1CC1", "Percent Effect": 11.13}
{"structure": "Cc1cc(NC(=O)Cn2cc(Br)ccc2=O)no1", "Percent Effect": -7.706}
{"structure": "NC(=O)CN1CCC(c2nc(C3CCOC3)no2)CC1", "stereo": "stereo not drawn", "Percent Effect": 6.379}
{"structure": "Cc1nnc(N2CCC(=O)CC2)s1", "Percent Effect": 1.771}
{"structure": "CC[C@@H](O)CN1CCN(c2cc(OC)ccn2)CC1", "Percent Effect": 20.46}
{"structure": "O=C1COCC(=O)N1CCc1ccc(Cl)cc1", "Percent Effect": 7.678}
{"structure": "CN1CCC[C@@H]1CN1CCN(C(=O)c2ccc[nH]2)CC1", "Percent Effect": -1.16}
{"structure": "O=C1CCN(Cc2cc(Br)cc3cccnc23)CCN1", "Percent Effect": 59.43}
{"structure": "O=C(COC(=O)c1cccs1)NCc1ccco1", "Percent Effect": 100.8}
{"structure": "CC(C)(C)NC(=O)CNc1cc(CCN)ncn1", "Percent Effect": -6.433}
{"structure": "Cc1nc2ccc(NC(=O)C3=NNC(=O)CC3)cc2s1", "Percent Effect": 5.477}
{"structure": "CC(C)NC(=O)CS(=O)(=O)Cc1ccccc1F", "Percent Effect": -4.255}

Some entries from above, unchanged:

CN(Cc1ccc(O)cc1)C(=O)c1cc(Cl)c[nH]1 gave 100%.
CNc1ncccc1N gave -252.9%.
Cc1cc(C(=O)N2CCN(Cc3ccsc3)CC2)[nH]n1 gave 84.01%.

Data taken from ChEMBL document CHEMBL3988442, “University of Dundee, Small-Polar-MMV Screening Library” (2021).